From patent US20260250363A1 (AP BIOSCIENCES, published 2026)

What was measured:
[1] = target: T1, SARS-CoV-2 AY.1 Spike Protein (R&D, Cat. #10922-CV) (SARS-CoV-2); test: competition ELISA: blocks biotin-ACE2 binding to coated spike
[2] = target: T2, SARS-CoV-2 C.37 Spike His Protein (R&D, Cat. #10887-CV) (SARS-CoV-2); test: direct ELISA on coated spike
[3] = target: T2, SARS-CoV-2 C.37 Spike His Protein (R&D, …); test: BLI (ForteBio), mAb on AHC sensor, spike in solution
[4] = target: T1, SARS-CoV-2 AY.1 Spike Protein (R&D, …); test: as above
[5] = target: T3, SARS-CoV-2 Spike Protein, wild type (R&D, Cat. #10549-CV) (SARS-CoV-2); test: as above
[6] = target: T2, SARS-CoV-2 C.37 Spike His Protein (R&D, …); test: competition ELISA: blocks biotin-ACE2 binding to coated spike
[7] = target: T3, SARS-CoV-2 Spike Protein, wild type …; test: as above
[8] = target: T1, SARS-CoV-2 AY.1 Spike Protein (R&D, …); test: direct ELISA on coated spike

B1: anti-SARS-CoV-2 antibody clone R4-1a-51 (antibody, V domains shown)
VH: QVQLVQSGAEVKKPGASVKVSCKASGYTFTGYYMHWVRQAPGQGLEWMGRINPNSGGTNYAQKFQGRVAMTRDTSISTAYMELSRLRSDDTAVYYCARGYMDYWGQGTPVTVSS
VL: QSVLTQPPSASGTPGQRVTISCSGSSSNIGSSTVNWYQQLPETAPKLLIYSNHQRPSGVPDRFSGSKSGTSASLALSGLQSEDEAEYYCAAWDDSLNGVVFGGGTKLTVLG
How did the IC50 [1] turn out when B1 was run?
The IC50 was 0.723 nM.

What about the EC50 [2] of the same binder?
The EC50 was 0.0771 nM.

What about the Kd [3] of the same binder?
Its Kd is 1.21 nM.

What about the Kd [4] of the same binder?
The Kd was 1.26 nM.

What about the Kd [5] of the same binder?
Its Kd is 2.72 nM.

And the IC50 [6]?
The IC50 was 2.78 nM.

What about the IC50 [7] of the same binder?
Its IC50 is 6 nM.

What about the EC50 [8] of the same binder?
Its EC50 is 0.0881 nM.
